Experiment [1] relates to B16. Kind of experiment: Antitumor activity against mouse B16 cells allografted in BDF mouse assessed as increase in life span at 1 mg/kg, ip administered for 9 days relative to untreated control.
Experiment [2] relates to B16. Briefly: Antitumor activity against mouse B16 cells allografted in BDF mouse assessed as increase in life span at 12.5 mg/kg, ip administered for 9 days relative to untreated control.
Experiment [3] deals with B16. Kind of experiment: Antitumor activity against mouse B16 cells allografted in BDF mouse assessed as increase in life span at 200 mg/kg, ip administered for 9 days relative to untreated control.
Experiment [4] deals with B16. Briefly: Antitumor activity against mouse B16 cells allografted in BDF mouse assessed as increase in life span at 2 mg/kg, ip administered for 9 days relative to untreated control.
For experiment [5], the system named is B16. Kind of experiment: Antitumor activity against mouse B16 cells allografted in BDF mouse assessed as increase in life span at 50 mg/kg, ip administered for 9 days relative to untreated control.
The subject of experiment [6] is B16. Kind of experiment: Antitumor activity against mouse B16 cells allografted in ip dosed BDF mouse assessed as increase in life span administered for 9 days.
Experiment [7] has as its system B16. Briefly: Antitumor activity against mouse B16 cells allografted in BDF mouse assessed as increase in life span at 8 mg/kg, ip administered for 9 days relative to untreated control. The experiment is classed as functional.

The source made the active and inactive calls. The calls are words filed in the database; no cut-off is given here.

Turning to `Nc1ccc(N(CCCl)CCCl)cc1`, the T/C in the experiment with B16 [1] amounted to 124%.

Turning to `NC(=O)Nc1ccc(N(CCCl)CCCl)cc1`, in the experiment with B16 [2], the T/C was 147%.

Turning to `ClCCN(CCCl)c1ccc(Oc2ccccc2)cc1`, in the experiment with B16 [3], the T/C came to 139%.

`Cc1cc(N(CCCl)CCCl)ccc1N`: the T/C in the experiment with B16 [4] was determined as 142%.

Take `Cc1ccc(N(CCCl)CCCl)cc1C`: the T/C in the experiment with B16 [5] worked out at 167%.

Regarding `N#CC(C#N)=Cc1ccc(N(CCCl)CCCl)cc1`, in the experiment on B16 [3], the T/C came to 108%.

As to `NS(=O)(=O)c1ccc(N(CCCl)CCCl)cc1`, the outcome in the experiment with B16 [6] was inactive.

Take `Oc1ccc(N(CCCl)CCCl)cc1`: the T/C in the experiment on B16 [7] stood at 147%.
